Laboratory results as given in the NIST ThermoML archive (doi:10.1021/acs.jced.5b00343).

Test: xn = mol fraction of the nth substance listed
Conditions: 101 kPa, Liquid; for speed of sound: Frequency=1.5 MHz, Sing-around technique in a fixed-path interferometer; for mass density: Vibrating tube method

CCCCOP(=O)(OCCCC)OCCCC [tributyl phosphate] + CCCCO
Conditions	mass density, 303.15 K [kg/m3]	mass density, 308.15 K [kg/m3]	mass density, 313.15 K [kg/m3]	mass density, 318.15 K [kg/m3]	mass density, 323.15 K [kg/m3]	speed of sound, 303.15 K [m/s]	speed of sound, 308.15 K [m/s]	speed of sound, 313.15 K [m/s]	speed of sound, 318.15 K [m/s]	speed of sound, 323.15 K [m/s]
x1 = 0.05	823.73	819.76	815.77	811.74	807.68	1223	1206.5	1189.6	1172.9	1156.8
x1 = 0.1002	841.91	837.88	833.82	829.73	825.61	1223.3	1206.7	1189.8	1173.1	1156.9
x1 = 0.1503	857.35	853.27	849.17	845.04	840.88	1223.6	1206.9	1189.9	1173.2	1157
x1 = 0.202	871.07	866.94	862.78	858.61	854.41	1223.8	1207.1	1190.1	1173.3	1157.1
x1 = 0.2502	882.23	878.06	873.88	869.68	865.45	1224.3	1207.5	1190.4	1173.6	1157.4
x1 = 0.3006	892.53	888.34	884.13	879.91	875.67	1225.3	1208.5	1191.5	1174.6	1158.2
x1 = 0.3502	901.62	897.41	893.19	888.95	884.7	1226.4	1209.6	1192.6	1175.6	1159.4
x1 = 0.4	909.79	905.56	901.34	897.08	892.83	1227.6	1210.8	1193.8	1177	1160.7
x1 = 0.4502	917.29	913.05	908.81	904.55	900.29	1229	1212.2	1195.2	1178.4	1162.2
x1 = 0.5002	924.06	919.82	915.56	911.3	907.03	1230.6	1213.7	1196.7	1180	1163.8
x1 = 0.5506	930.31	926.07	921.81	917.55	913.28	1232.3	1215.4	1198.5	1181.8	1165.5
x1 = 0.6005	935.99	931.73	927.47	923.2	918.93	1234	1217.1	1200.3	1183.5	1167.4
x1 = 0.6502	941.16	936.9	932.63	928.36	924.09	1235.7	1218.9	1202	1185.4	1169.2
x1 = 0.7002	945.95	941.68	937.41	933.13	928.85	1237.3	1220.5	1203.6	1187	1170.9
x1 = 0.7493	950.33	946.06	941.78	937.49	933.2	1238.9	1222	1205.2	1188.6	1172.5
x1 = 0.8001	954.47	950.2	945.93	941.65	937.36	1240.4	1223.5	1206.8	1190.2	1174.2
x1 = 0.8507	958.35	954.07	949.79	945.5	941.22	1241.9	1225.1	1208.3	1191.7	1175.7
x1 = 0.9009	961.93	957.64	953.36	949.06	944.78	1243.5	1226.6	1210	1193.4	1177.4
x1 = 0.9504	965.28	960.99	956.69	952.39	948.1	1245.1	1228.3	1211.6	1195.1	1179.2
